Among the data in PubChem BioAssay AID588519 (ICCB-Longwood Screening Facility, Harvard Medical School, 2011) are % elongation values, retold here.

Each structure is given as a SMILES string. The list shows a part of the results, in another mix than the full data. The source made the active and inactive calls. Rule as the data show it: active = % elongation below about 90%; inactive = the rest, inconclusive results apart.

For this experiment, the target named is Genome polyprotein (Poliovirus type 1 (strain Mahoney)) (UniProt P03300). Kind of experiment: inhibitors of poliovirus polymerase RNA elongation – biochemical, fluorescence polarization, total intensity, primary screen (AID 588519). The following applies: stronger effect = lower value, compound at 16.7 µg/mL.
Take `FC(F)(F)Oc1ccc(NC2CCNCC2)cc1`: the % elongation was inactive: 99%.

Turning to `NC(=O)C1(Nc2ccc(F)cc2)CCNCC1`, the % elongation is inactive: 103%.

As to `Cc1ccc(C(=O)NCC2(N(C)C)CCCCC2)o1`, the % elongation is inactive: 106%.

For the compound `CCCCOc1ccccc1C(=O)NCC1(N2CCOCC2)CCCCC1`, the % elongation was inactive: 105%.

Regarding `O=C(NCC1(N2CCOCC2)CCCCC1)c1ccccc1Br`, the % elongation was inactive: 98%.

Turning to `c1ccc(CN2CCC(Nc3ccc4c(c3)OCO4)CC2)cc1`, the % elongation was inactive: 96%.

As to `Cn1nc(C(=O)NCC2(N3CCCCC3)CCCCC2)c2ccccc2c1=O`, the % elongation was inactive: 102%.

As to `CCOc1ccc(C(=O)NCC2(N3CCOCC3)CCCCC2)cc1`, the % elongation is inactive: 105%.

With `CC(C)(C)OC(=O)N1CCC(Nc2ccc(OC(F)(F)F)cc2)CC1`, the % elongation is inactive: 103%.

Turning to `CCCOc1cccc(C(=O)NCC2(N3CCOCC3)CCCCC2)c1`, the % elongation is inactive: 101%.

In the case of `O=C(NCC1(N2CCOCC2)CCCCC1)c1ccc(Cl)cc1`, the % elongation is inactive: 97%.

Consider `O=C(NCC1(N2CCOCC2)CCCCC1)c1ccc2nc[nH]c2c1`, for which the % elongation was inactive: 106%.

Regarding `O=C1CCN(Cc2ccccc2)CC1`, the % elongation is inactive: 105%.

Regarding `CCOC(=O)N1CCC(Nc2ccc(F)cc2)CC1`, the % elongation is inactive: 100%.

With `COc1ccccc1C(=O)NCC1(N2CCOCC2)CCCCC1`, the % elongation was inactive: 109%.

`CCOC(=O)N1CCC(Nc2cccc(C)c2)CC1`: the % elongation is inactive: 98%.

For the compound `COc1ccc(C(=O)NCC2(N3CCCCC3)CCCCC2)cc1`, the % elongation was inactive: 107%.

On to `CCCN1CCC(Nc2ccc(OC)c(OC)c2)CC1`, for which the % elongation was inactive: 99%.

For the compound `CC1CN(CCc2ccccc2)CCC1=O` (stereo unspecified), the % elongation is inactive: 106%.

In the case of `Cc1cnc(C(=O)NCC2(N3CCCCC3)CCCCC2)cn1`, the % elongation is inactive: 101%.

Consider `N#CC1(Nc2ccccc2)CCN(Cc2ccccc2)CC1`, for which the % elongation was inactive: 99%.

As to `CCOc1ncccc1C(=O)NCC1(N(C)C)CCCCC1`, the % elongation is inactive: 100%.

Regarding `COc1cc(C(=O)NCC2(N3CCOCC3)CCCCC2)cc(OC)c1OC`, the % elongation is inactive: 105%.

With `CCOc1ncccc1C(=O)NCC1(N2CCCCC2)CCCCC1`, the % elongation is inactive: 100%.

Take `O=C(NCC1(N2CCCCC2)CCCCC1)c1n[nH]c2ccccc12`: the % elongation is inactive: 90%.

`CN(C)C1(CNC(=O)c2ccc(C(C)(C)C)cc2)CCCCC1`: the % elongation is inactive: 108%.

Consider `CCN1CCC(Nc2ccc(F)cc2)CC1`, for which the % elongation is inactive: 100%.

In the case of `CC(C)(C)c1ccc(C(=O)NCC2(N3CCOCC3)CCCCC2)cc1`, the % elongation was inactive: 108%.

As to `O=c1[nH]c2ccccc2n1C1CCN(CCCC(c2ccc(F)cc2)c2ccc(F)cc2Cl)CC1` (stereo unspecified), the % elongation was inactive: 100%.

Consider `CC1CN(CCc2ccccc2)C(C)CC1=O` (stereo unspecified), for which the % elongation is inactive: 112%.

For the compound `CN(C)c1ccc(C(=O)NCC2(N3CCCCC3)CCCCC2)cc1`, the % elongation was inactive: 107%.

As for `Cc1ccccc1C(=O)NCC1(N(C)C)CCCCC1`, the % elongation is inactive: 107%.

Consider `O=C(NCC1(N2CCOCC2)CCCCC1)c1ccc([N+](=O)[O-])cc1`, for which the % elongation is inactive: 106%.

Turning to `O=C(NCC1(N2CCOCC2)CCCCC1)c1ccccc1[N+](=O)[O-]`, the % elongation was inactive: 106%.

Take `O=C(NCC1(N2CCOCC2)CCCCC1)c1cc2ccccc2cc1O`: the % elongation is inactive: 99%.

`CCCN1CCC(Nc2cc(OC)cc(OC)c2)CC1`: the % elongation was inactive: 101%.

For the compound `O=C(NCC1(N2CCOCC2)CCCCC1)c1ccccc1`, the % elongation is inactive: 104%.

Turning to `Cc1c(C(=O)NCC2(N3CCOCC3)CCCCC2)oc2c(Cl)cccc12`, the % elongation is inactive: 103%.

Consider `NC(=O)C1(Nc2ccccc2)CCN(Cc2ccccc2)CC1`, for which the % elongation was inactive: 103%.

Turning to `CN1CCC(Nc2ccc(F)cc2)CC1`, the % elongation is inactive: 99%.

As to `O=C1CCN(CCc2ccccc2)CC1`, the % elongation is inactive: 105%.
